Pooled drug test results. Numbers come from NIAID ChemDB, via PubChem.

Shared fields: enzyme or target tests; species: Hepatitis C virus; target: NS5B polymerase; measure: IC50

Neighbouring rows are from separate reports. An empty or dashed field is not shown. ICn is the concentration giving n% inhibition. a–b is a range or a potency band.

SMILES | read by | strain or isolate | value
CCCC1(CC(=O)O)CCCC2c3ccc(F)c(F)c3NC21 |  |  | >33 µM
COC(=O)c1sc(-c2ccccc2)cc1N(C)S(=O)(=O)c1cc(C)c(Cl)cc1C |  |  | >100 µM
CC1=C(C(=O)OCCc2cccc(Cl)c2)C(COC(=O)CCN(C)C)NC(=S)N1 |  |  | 0.7 µM
COc1ccc(OC)c(C2Nc3ccc(C(=O)c4ccccc4)cc3NC3=C2C(=O)CCC3)c1 |  |  | >33.3 µM
COc1cc(C(=O)N2[C@@H](c3ncc(C)s3)[C@@H](c3cnccn3)C[C@@]2(Cc2ccsn2)C(=O)O)ccc1C(C)(C)C |  | Genotype 1A | <0.15 µM
Cc1cccc(C(=O)N/C(=C\c2ccc(-c3ccccc3)o2)C(=O)O)c1 |  |  | 11–30 µM
O=C(Cn1nc(NS(=O)(=O)Cc2ccc([N+](=O)[O-])cc2)cc1C(=O)N[C@H]1CCCC[C@@H]1OCc1ccccc1)N[C@H]1CCCC[C@@H]1OCc1ccccc1 |  |  | 0.1–1 µM
COc1cc(C(=O)N2[C@@H](c3nccs3)[C@@H](c3cnccn3)C[C@@]2(Cc2ccccn2)C(=O)O)ccc1C(C)(C)C |  | genotype 1b | 0.1–0.5 µM
CC(C)CCN1C(=O)C(C2=NS(=O)(=O)c3ccccc3N2)=C(O)[C@@H]1C1CCCCC1 |  |  | 0.019 µM
COC(=O)c1ccc2nc(-c3ccc(F)cc3)c(-c3ccc(F)cc3)nc2c1 |  |  | >50 µM
O=C(Cn1nc(C(=O)Nc2nn[nH]n2)cc1C(=O)N[C@H]1CCCC[C@@H]1OCC1CCCCC1)N[C@H]1CCCC[C@@H]1OCc1ccccc1 |  |  | 0.1–1 µM
CC(C)CCN1C(=O)C(C2=NS(=O)(=O)c3ccccc3N2)=C(O)[C@@H]1C(C)(C)C |  |  | 0.019 µM
O=C1CC(c2ccccc2)CC2=C1C(c1ccc(Cl)cc1)Nc1ccc(C(=O)c3ccccc3)cc1N2 |  |  | >42.7 µM
O=C(O)/C=C/c1ccc(NC(=O)C2(NC(=O)c3ccc4c(c3)nc(-c3ccc[nH]3)n4C3C[C@H]4CC[C@@H]3C4)CCCC2)cc1 |  |  | 0.5–5 µM
CC(C)CCN1C(=O)C(C2=NS(=O)(=O)c3ccccc3N2)=C(O)[C@]1(C)C(C)C |  |  | 0.25 µM
O=C(O)c1ccc(-c2ccc(/C=C3/Sc4ccccc4C3=O)o2)cc1 |  |  | 0.056–83.5 µM
COC(=O)c1sc(-c2ccccc2)cc1NS(=O)(=O)c1cc(C)c(Cl)cc1C |  |  | >100 µM
O=C(Cn1nc(C(=O)O)cc1C(=O)Nc1ccccc1OCc1ccsc1)N[C@H]1CCCC[C@@H]1OCc1ccccc1 |  |  | ≤0.05 µM
CCC(=O)N1c2ccccc2NC2=C(C(=O)CC(c3ccccc3OCc3ccccc3)C2)C1c1ccccc1 |  |  | 30.8 µM
COc1cc(C(=O)N2[C@@H](c3ncc(C)s3)[C@@H](c3cnccn3)C[C@@]2(Cc2nccs2)C(=O)O)ccc1C(C)(C)C |  | genotype 1b | <0.1 µM
O=C1C[C@H](c2ccccc2OCc2ccccc2)CC2=C1[C@H](c1cccc(OC(=O)c3ccc(Cl)cc3)c1)Nc1ccccc1N2 |  |  | 70.1 µM
CC(C)CCN1CC(O)=C(C2=NS(=O)(=O)c3ccccc3N2)C1=O |  |  | 2.06 µM
CCCC1(C(=O)O)CCCC2c3c(C#N)ccc(F)c3NC21 |  |  | 10 µM
CCSc1nc(Nc2ccc(N(CC)CC)cc2)cc(N2CCN(C(=O)c3ccncc3)CC2)n1 |  |  | 3 µg/mL
Cn1cccc1-c1nc2cc(C(=O)NC3(C(=O)Nc4ccc(/C=C/C(=O)O)cc4)CCCC3)ccc2n1C1CCCC1 |  |  | 0.5–5 µM
O=C(Cn1nc(C(=O)NNc2ccc(O)cc2)cc1C(=O)N[C@H]1CCCC[C@@H]1OCc1ccccc1)N[C@H]1CCCC[C@@H]1OCc1ccccc1 |  |  | 0.1–1 µM
COC(=O)[C@H](Cc1c[nH]c2ccc(O)cc12)NC(=O)c1ccc2nc(-c3ccc(F)cc3)c(-c3ccc(F)cc3)nc2c1 |  |  | <10 µM
CCc1ccc(C(=O)OCc2ccccc2)c(Nc2ccc(N3CCOCC3)cc2)n1 |  |  | 3 µg/mL
O=C(O)/C(=C/c1ccc(-c2ccccc2)o1)NC(=O)c1cccc(O)c1 |  |  | >30 µM
COc1cc(C(=O)N2[C@@H](c3nccs3)[C@@H](c3cnccn3)C[C@@]2(CCS)C(=O)O)ccc1C(C)(C)C |  | Genotype 1A | >1 µM
CC(C)CCN1C(=O)C(C2=NS(=O)(=O)c3ccccc3N2)=C(O)[C@@H]1Cc1ccccc1 |  |  | 3.5 µM
Cc1cccc(C(=O)N/C(=C\c2ccc(-c3ccccc3Cl)s2)C(=O)O)c1 |  |  | >30 µM
COC(=O)OC(C1COC(=O)O1)C1NC(=S)NC(C)=C1C(=O)OCCc1cccc(Cl)c1 |  |  | 0.9 µM
CC1(C)CC(=O)C2=C(C1)Nc1cc(C(=O)c3ccccc3)ccc1NC2c1cccc([N+](=O)[O-])c1 |  |  | >42.7 µM
NC(=O)[C@H](Cc1c[nH]c2ccc(O)cc12)NC(=O)c1ccc2nc(-c3ccc(F)cc3)c(-c3ccc(F)cc3)nc2c1 |  |  | <10 µM
COC(=O)OC(c1oc(=O)oc1C)C1NC(=S)NC(C)=C1C(=O)OCCc1cccc(Cl)c1 |  |  | 0.8 µM
CC(C)CCN1C(=O)C(C2=NS(=O)(=O)c3ccccc3N2)=C(O)C12CC2 |  |  | 3.47 µM
COc1ccc(NC(=O)c2ccc3c(c2)nc(-c2ccccn2)n3C2CCCCC2)cc1OC |  |  | >7 µM
COc1cc(C(=O)N2[C@@H](c3nccs3)[C@@H](c3cnccn3)C[C@@]2(Cc2cnc[nH]2)C(=O)O)ccc1C(C)(C)C |  | genotype 1b | 0.1–0.5 µM
N#Cc1cccc(S(=O)(=O)N(Cc2c(Cl)cccc2Cl)c2cccc(C(=O)NC3CCC3)c2)c1 |  | 1b | 0.04 µM
CCCCOC(=O)c1ccc(CCCC)nc1Nc1ccc(N2CCOCC2)cc1 |  |  | 3 µg/mL
CCC[C@]1(CC(=O)O)OCCc2c1[nH]c1c(C)ccc(C#N)c21 |  | Genotype 4 | 17.8 µM
CCSc1nc(Nc2ccc(N(CC)CC)cc2)cc(N2CCN(C(=O)c3ccccc3)CC2)n1 |  |  | 3 µg/mL
C[C@H]1CCC[C@H](C)C1n1c(-c2ccoc2)nc2cc(C(=O)NC3(C(=O)Nc4ccc(/C=C/C(=O)O)cc4)CCCC3)ccc21 |  |  | 0.5–5 µM
O=C(O)c1ccc(N2C(=O)/C(=C\c3ccc(-c4cc(C(F)(F)F)ccc4Cl)o3)SC2=S)cc1 |  |  | 0.056–83.5 µM
O=C(O)c1ccc2c(c1)nc(-c1ccc(OCc3cc(C(=O)N4CCC(O)CC4)ccc3-c3ccc(Cl)cc3)cc1F)n2C1CCCCC1 |  |  | 0.28 µM
O=C(O)c1ccc2nc(-c3ccccc3)c(-c3ccccc3)nc2c1 |  |  | <10 µM
CCC[C@@H](NC(=O)c1ccc2c(c1)nc(-c1ccoc1)n2C1CCCCC1)C(=O)Nc1ccc(/C=C/C(=O)O)cc1 |  |  | 0.5–5 µM
CCCC1(CC(=O)O)CCCC2c3cc(Br)cc(Cl)c3NC21 |  |  | >33 µM
CCN(CC)c1ccc(C2CC(=O)C3=C(C2)Nc2ccccc2N(C(C)=O)C3c2ccccc2)cc1 |  |  | >42.7 µM
COC(=O)[C@H](Cc1c[nH]c2ccccc12)NC(=O)c1ccc2nc(-c3ccccn3)c(-c3ccccn3)nc2c1 |  |  | >50 µM
O=C(O)/C(=C/c1ccc(-c2ccccc2Cl)s1)NC(=O)c1cccnc1 |  |  | <10 µM
O=C(Cn1nc(C(=O)Nc2nn[nH]n2)cc1C(=O)N[C@H]1CCCC[C@@H]1OCc1ccccc1)N[C@H]1CCCC[C@@H]1OCc1ccccc1 |  |  | 0.05–0.1 µM
CC(C)(C)CC[C@@]1(C)C(=O)C(C2=NS(=O)(=O)c3cc(NS(C)(=O)=O)ccc3N2)=C(O)c2ccccc21 | luciferase | 1b | 0.016 µM
NC(=O)[C@H](Cc1c[nH]c2ccccc12)NC(=O)c1ccc2nc(-c3ccc(F)cc3)c(-c3ccc(F)cc3)nc2c1 |  |  | <10 µM
O=C(Cn1nc(N(c2ccccc2)c2ccccc2)cc1C(=O)N[C@H]1CCCC[C@@H]1OCc1ccccc1)N[C@H]1CCCC[C@@H]1OCc1ccccc1 |  |  | 0.1–1 µM

For reference, 5 entries again:

CCCC1(C(=O)O)CCCC2c3c(C#N)ccc(F)c3NC21 ; value: 10 µM
O=C(O)c1ccc2nc(-c3ccccc3)c(-c3ccccc3)nc2c1 ; value: <10 µM
COc1ccc(NC(=O)c2ccc3c(c2)nc(-c2ccccn2)n3C2CCCCC2)cc1OC ; value: >7 µM
COc1cc(C(=O)N2[C@@H](c3nccs3)[C@@H](c3cnccn3)C[C@@]2(CCS)C(=O)O)ccc1C(C)(C)C ; strain or isolate: Genotype 1A ; value: >1 µM
O=C(Cn1nc(C(=O)O)cc1C(=O)Nc1ccccc1OCc1ccsc1)N[C@H]1CCCC[C@@H]1OCc1ccccc1 ; value: ≤0.05 µM